Like-named read-outs stand apart in the source and are kept apart here.
Test system: Ebola virus
[1] = Example 2: baby (5 kg), initial load 10^7 pfu/ml, sequential
[2] = Example 5: initial load 10^10 pfu/ml, sequential
[3] = Example 6: initial load 10^10 pfu/ml, sequential
[4] = Example 8: baby (5 kg), initial load 10^7 PFU/ml, sequential reduction after each product of the cocktail

SMILES | Residual estimated viral load [1] | Residual estimated viral load [2] | Residual estimated viral load [3] | Residual estimated viral load [4] | Residual estimated viral load (Example 3: initial load 10^9 pfu/ml, sequential) | Residual estimated viral load (Example 9: baby (7 kg), initial load 10^8 PFU/ml, sequential reduction after each product)
C[C@H]1[C@H](C)CC[C@]2(C(=O)O)CC[C@]3(C)C(=CC[C@@H]4[C@@]5(C)CC[C@H](O)C(C)(C)[C@@H]5CC[C@]43C)[C@H]12 | 12500 pfu/ml | 2.5 × 10^8 pfu/ml | 1.25 × 10^8 pfu/ml | 125000 pfu/ml |  | 
CC1(C)CC[C@]2(C(=O)O)CC[C@]3(C)C(=CC[C@@H]4[C@@]5(C)CC[C@H](O)C(C)(C)[C@@H]5CC[C@]43C)[C@@H]2C1 [BETA-OLEANOLIC ACID] | 1875 pfu/ml | 1.25 × 10^8 pfu/ml | 6.25 × 10^7 pfu/ml | 18750 pfu/ml | 6250 pfu/ml | 1.5 × 10^5 pfu/ml

Reference: patent US10369166B2 (priority 2014, dated 2019)
